Anti-infective test results gathered from many reports (values: NIAID ChemDB through PubChem).

Common to all: enzyme or target tests; protein: CCR5; endpoint: IC50

ICn is the concentration giving n% inhibition. Rows are shuffled and stem from different studies.

compound | read by | value
COc1ccc(N(CCCN2CCC(Cc3ccc(F)cc3)CC2)C(=O)C2CCN(C(C)=O)CC2)cc1Cl | radiometric | 0.03 µM
CCCc1ccc(-c2ccc3c(c2)C=C(C(=O)Nc2ccc(CN(C)C4CCOCC4)cc2)CCS3(=O)=O)cc1 | radiometric | 0.033 µM
CCC(CC)N(C)Cc1ccc(NC(=O)C2=Cc3cc(-c4ccc(C)cc4)ccc3OCC2)cc1 | radiometric | 0.64 µM
CCCCCOCCOc1ccc(-c2ccc3c(c2)C=C(C(=O)Nc2ccc(CN(C)C4CCOCC4)cc2)CCS3(=O)=O)cc1 | radiometric | 0.72 µM
CCCCOCCOc1ccc(-c2ccc3c(c2)C=C(C(=O)Nc2ccc([C@@H](O)c4cccc[n+]4[O-])cc2)CCS3(=O)=O)cc1 | radiometric | 3.6 µM
CC(C)c1ccc(NC(=O)N(CCCN2CCC(Cc3ccc(F)cc3)CC2)c2ccccc2)cc1 | radiometric | 0.076 µM
CCN(C(=O)Cc1ccc(S(C)(=O)=O)cc1)C1CCN(CCC(c2cccc(F)c2)N2CCN(c3ccc(F)cc3)CC2)CC1 | radiometric | 0.004 µM
CN1CC(C(=O)N(CCCN2CCC(Cc3ccccc3)CC2)c2ccccc2)CC1=O | radiometric | 0.48 µM
CN1CC(C(=O)N(CCCN2CCC(Cc3ccccc3)CC2)c2ccccc2)CC1=O | radiometric | <1 µM
CCOCCCOc1ccc(-c2ccc3c(c2)C=C(C(=O)Nc2ccc(CN(C)C4CCOCC4)cc2)CCS3(=O)=O)cc1 | radiometric | 0.068 µM
CCCCOCCOc1ccc(-c2ccc3c(c2)C=C(C(=O)Nc2ccc([C@H](O)c4cccc[n+]4[O-])cc2)CCN3CCC)cc1 | radiometric | 0.038 µM
c1cc2c(c(NCc3ccc(CN4CCCNCCNCCCNCC4)cc3)c1)CCCC2 | fluorescence | <10 µM
O=C1CC(C(=O)N(CCCN2CCC(Cc3ccccc3)CC2)c2ccccc2)CN1Cc1ccccc1Cl | radiometric | <1 µM
O=C(C1CCCCC1)N(CCCN1CCC(Cc2ccccc2)CC1)c1ccccc1 | radiometric | 0.24 µM
CCN(C(=O)Cc1ccc(S(C)(=O)=O)cc1)C1CCN(CCC(c2ccccc2)C2CCN(C(=O)c3ccc(Cl)cc3)CC2)CC1 | radiometric | 0.002 µM
CCCCOCCOc1ccc(-c2ccc3c(c2)C=C(C(=O)Nc2ccc([C@H](O)c4cccc[n+]4[O-])cc2)CCN3CC2CC2)cc1 | radiometric | 0.034 µM
c1ccc(N2CCCCC2)c(NCc2ccc(CN3CCCNCCNCCCNCC3)cc2)c1 | fluorescence | <10 µM
CCCCOCCOc1ccc(-c2ccc3c(c2)C=C(C(=O)Nc2ccc(CN(C)C4CCOCC4)cc2)CCN3CCC)cc1 | radiometric | 0.0035 µM
CCN(C(=O)Cc1ccc(S(C)(=O)=O)cc1)C1CCN(CCC(c2ccccc2)N2CCN(C(=O)Nc3ccccc3)CC2)CC1 | radiometric | 0.059 µM
C=C(C)[C@H]1CC[C@@]2(C)CC[C@]3(C)C[C@@H]4[C@H](/C(C)=C\C[C@H]3[C@H]12)[C@H](O)C[C@@H]4C | radiometric | >33 µM
CCN(C(=O)Cc1ccc(S(C)(=O)=O)cc1)C1CCN(CCC(c2ccccc2)N2CCN(C(=O)c3ccccc3)CC2)CC1 | radiometric | 0.014 µM
Cc1ccc(-c2ccc3c(c2)C=C(C(=O)Nc2ccc(CN(C)C4CCOCC4)cc2)CCO3)cc1 | radiometric | 0.53 µM
CCCCOCCOc1ccc(-c2ccc3c(c2)C=C(C(=O)Nc2ccc(C(O)c4cccc[n+]4[O-])c(C)c2)CCN3CC(C)C)cc1 | radiometric | 0.032 µM
C=CCN(Cc1ccc(OC)cc1)C1CCN(C[C@H]2CN(C(=O)C3CCCC3)C[C@]2(O)c2ccccc2)CC1 | radiometric | >1 µM
O=C(Nc1ccc(F)cc1)N(CCCN1CCC(Cc2ccc(F)cc2)CC1)c1ccccc1 | radiometric | 0.013 µM
CC(=O)N1CCC(C(=O)N(CCCN2CCC(Cc3ccccc3)CC2)c2ccc(Cl)c(Cl)c2)CC1 | radiometric | 0.0019 µM
Cc1ccc(-c2ccc3c(c2)C=C(C(=O)Nc2ccc(CN(C)C4CCOCC4)cc2)CCS3(=O)=O)cc1 | radiometric | 0.2 µM
CN(CC(CCN1CCC(c2ccccc2)CC1)c1ccccc1)S(=O)(=O)c1ccccc1 | radiometric | 0.03 µM
CCOCCOc1ccc(-c2ccc3c(c2)C=C(C(=O)Nc2ccc(CN(C)C4CCOCC4)cc2)CCS3(=O)=O)cc1 | radiometric | 0.034 µM
CN1CC(C(=O)N(CCCN2CCC(Cc3ccc(F)cc3)CC2)c2ccc(Cl)c(Cl)c2)CC1=O | radiometric | <1 µM
CS(=O)(=O)c1ccc(NC(=O)N(CCCN2CCC(Cc3ccc(F)cc3)CC2)c2ccccc2)cc1 | radiometric | 0.026 µM
O[C@@]1(c2ccccc2)CN(Cc2ccccc2)C[C@H]1CN1CCC(c2ccccc2)CC1 | radiometric | >10 µM
CN1CC(C(=O)N(CCCN2CCC(C(=O)c3ccc(F)cc3)CC2)c2ccccc2)CC1=O | radiometric | >1 µM
CC(=O)N1CCC(C(=O)Nc2ccc(CN(C)C3CCOCC3)cc2)=Cc2cc(-c3ccc(N4CCOCC4)cc3)ccc21 | radiometric | 0.2 µM
C=C(C)[C@H]1CC[C@@]2(C)CC[C@]3(C)C[C@H]4[C@@H](C)C=C[C@H]4/C(C(=O)O)=C\C[C@H]3[C@H]12 | radiometric | >33 µM
CN1CC(C(=O)N(CCCCN2CCC(C(=O)c3ccc(F)cc3)CC2)c2ccccc2)CC1=O | radiometric | >1 µM
CN(Cc1ccc(NC(=O)C2=Cc3cc(-c4ccc(N5CCOCC5)cc4)ccc3S(=O)(=O)CC2)cc1)C1CCOCC1 | radiometric | 0.07 µM
CN1CC(C(=O)N(CCCN2CCC(Cc3ccccc3)CC2)Cc2ccccc2)CC1=O | radiometric | <1 µM
CN1CC(C(=O)N(CCCN2CCC(Cc3ccccc3)CC2)c2ccccc2)CC1=O | radiometric | 0.48 µM
Cc1ccc(-c2ccc3c(c2)C=C(C(=O)Nc2ccc(C(O)c4cccc[n+]4[O-])cc2)CCO3)cc1 | radiometric | 0.43 µM
CCCCOCCOc1ccc(-c2ccc3c(c2)C=C(C(=O)Nc2ccc(CN(C)C4CCOCC4)cc2)CCN3Cc2cnn(C)c2)cc1 | radiometric | 0.0027 µM

The first 4 rows once more:

compound | read by | value
COc1ccc(N(CCCN2CCC(Cc3ccc(F)cc3)CC2)C(=O)C2CCN(C(C)=O)CC2)cc1Cl | radiometric | 0.03 µM
CCCc1ccc(-c2ccc3c(c2)C=C(C(=O)Nc2ccc(CN(C)C4CCOCC4)cc2)CCS3(=O)=O)cc1 | radiometric | 0.033 µM
CCC(CC)N(C)Cc1ccc(NC(=O)C2=Cc3cc(-c4ccc(C)cc4)ccc3OCC2)cc1 | radiometric | 0.64 µM
CCCCCOCCOc1ccc(-c2ccc3c(c2)C=C(C(=O)Nc2ccc(CN(C)C4CCOCC4)cc2)CCS3(=O)=O)cc1 | radiometric | 0.72 µM